# Measurements reported in article PMC12432378 (Cell Reports Medicine, 2025).
# Assays:
# authentic MjHKU4r-CoV-1 [1] = conditions: 40 nM peptide; Figure 6D
# authentic MjHKU4r-CoV-1 [2] = experiment: Inhibition of authentic MjHKU4r-CoV-1 infection, RT-qPCR
structure (smiles),measurement,setting,value
CC[C@H](C)[C@H](NC(=O)[C@H](C)NC(=O)[C@H](CCSC)NC(=O)[C@H](CCC(=O)O)NC(=O)[C@H](CC(=O)O)NC(=O)[C@H](CO)NC(=O)[C@H](CC(C)C)NC(=O)[C@H](CC(=O)O)NC(=O)[C@H](CC(C)C)NC(=O)[C@H](CC(C)C)NC(=O)[C@@H](NC(=O)[C@@H](NC(=O)[C@H](CC(N)=O)NC(=O)[C@@H](NC(=O)[C@H](CCCCN)NC(=O)[C@H](CO)NC(=O)[C@@H](NC(=O)[C@H](CCC(=O)O)NC(C)=O)[C@@H](C)CC)[C@@H](C)CC)C(C)C)[C@@H](C)O)C(=O)N[C@@H](CC(C)C)C(=O)N[C@@H](CC(C)C)C(=O)N[C@@]1(C)CCCC=CCCC[C@@](C)(C(=O)N[C@@H](CC(C)C)C(=O)N[C@@H](CC(N)=O)C(=O)N[C@@H](CC(=O)O)C(=O)N[C@@H](CO)C(=O)N[C@@H](Cc2ccc(O)cc2)C(=O)N[C@H](C(=O)N[C@@H](CC(=O)O)C(=O)N[C@@H](CC(C)C)C(=O)N[C@@H](CCCCN)C(=O)N[C@@H](CCC(=O)O)C(=O)N[C@@H](CC(C)C)C(N)=O)[C@@H](C)CC)NC(=O)[C@H](CCCCN)NC(=O)[C@H]([C@@H](C)CC)NC(=O)[C@H](C)NC1=O [MjHKU4r-HR2P10],IC50,MjHKU4r-S,3.56 nM
same,IC50,MjHKU4r-CoV-1 PsV,8.29 nM
same,Suppression of authentic MjHKU4r-CoV-1 N protein expression (immunofluorescence),authentic MjHKU4r-CoV-1 [1],almost completely suppressed
same,IC50,authentic MjHKU4r-CoV-1 [2],2.13 nM
